In patent US9221875B2, “Amphiphilic peptides for treatment of keratitis” (Agency for Science, Technology and Research, priority 2013, dated 2015):

Test system: 5 microorganisms tested (S. epidermidis, S. aureus, E. coli, P. aeruginosa, C. albicans)
Type: cell-based
Protocol: Red blood cells suspension incubated with PBS was used as negative control.

Row | Compound | SI, selectivity index (HC10 / GM) (rat red blood cells) | SI, calculated as 2500 divided by 250 mg L^−1 (footnote d)
1 | Polymyxin B [reference compound] | >60.4 | –
2 | CC(C)[C@H](N)C(=O)N[C@@H](CCCNC(=N)N)C(=O)N[C@H](C(=O)N[C@@H](CCCCN)C(=O)N[C@H](C(=O)N[C@@H](CCCNC(=N)N)C(=O)N[C@H](C(=O)N[C@@H](CCCCN)C(N)=O)C(C)C)C(C)C)C(C)C [(VRVK)2-NH2] (H-VRVKVRVK-NH2; N-terminus assumed) | – | >10^d

Peptide text beside a SMILES is read from it.
